Measured values from several laboratories, pooled; numbers as filed in NIAID ChemDB.

Shared fields: growth or infection tests; species: Candida albicans; measure: MIC

Rows are shuffled and stem from different studies. An empty or dashed field is not shown.

SMILES	strain	value
N#Cc1ccc(Nc2nc(Oc3ncnc4ccccc34)nc(N3CCCCC3)n2)cc1C(F)(F)F	MTCC 183	100 µM
CC(C)N=C(N)c1ccc2nc(-c3ccc(-c4cc(=O)c5ccccc5o4)cc3)[nH]c2c1	ATCC 10231	6.25 µg/mL
Cc1n[nH]c(=O)n1N1C(=O)c2ccccc2C1=O	ATCC16231	>250 µg/mL
CC(C)(C)COC(=O)N[C@H](Cc1cn(Cc2ccccc2)nn1)C(=O)OCc1cn(Cc2ccccc2)nn1	MTCC 183	21.2 µM
CO[C@H]1[C@@H](O)[C@H](O)[C@H](OC[C@@]23C[C@@H]4[C@H](C)CC[C@H]4[C@@]4(C=O)C[C@@H]2C=C(C(C)C)[C@@]34C(=O)O)O[C@@H]1C	MY1055	6.25 µg/mL
Cn1nc2c(=O)n(-c3c(Cl)cc(Cl)cc3Cl)nc(-c3ccccc3)c2c1-c1ccccc1	ATCC 27541	<0.0024 µg/mL
O=C1C(Br)=C(Nc2ccc(Cl)cc2)C(=O)c2ccccc21		100 µg/mL
C[C@H](N1CCN(c2ccc(-n3cccn3)cc2)C1=O)[C@@](O)(Cn1cncn1)c1ccc(F)cc1F	TIMM1756	0.004 µg/mL
CC(C)N=C(N)c1ccc2nc(-c3ccc4c(c3)Cc3cc(-c5nc6ccc(C(N)=NC(C)C)cc6[nH]5)ccc3-4)[nH]c2c1	Isolate 3022 fluconazole-resistant	1.56 µg/mL
CN1C=NCCC1.Cc1c(C)c(C)c(C)c(C)c1C.[Cl][Ru][Cl]		400 µg/mL
Nc1[nH]c(=O)ncc1F	2915	0.5 µg/mL
CC(n1ccn(-c2ccc(Cn3ccnn3)cc2)c1=O)C(O)(Cn1cncn1)c1ccc(F)cc1F	TA	0.03 µg/mL
Cn1nc2c(=O)n(-c3ccccc3)nc(-c3ccccc3)c2c1-c1ccccc1	ATCC 27541	0.62 µg/mL
COCCN1CCN(CCOC)[C]1=[Ru]([Cl])[Cl].Cc1ccc(C(C)C)cc1		800 µg/mL
Cn1nc2c(=O)[nH]nc(-c3ccccc3)c2c1-c1ccccc1	ATCC 27541	>0.62 µg/mL
C=CC(C)(C)C1(C)OC=CC1(C)CC(=O)C(O)C(OC)C(C)O		>200 µg/mL
Nc1cccc2nc(CBr)c(=O)[nH]c12		>200 µM
CCCCCCCCOc1ccc(C(=O)NC2C[C@@H](O)[C@@H](O)NC(=O)C3[C@@H](O)[C@@H](C)CN3C(=O)C(C(C)O)NC(=O)C([C@H](O)[C@@H](O)c3ccc(O)cc3)NC(=O)C3C[C@@H](O)CN3C(=O)C(C(C)O)NC2=O)cc1	MY1055	0.5 µg/mL
CC(n1ccn(-c2ccc(-n3nccn3)cc2)c1=O)C(O)(Cn1cncn1)c1ccc(F)cc1F	TA	<0.008 µg/mL
C[C@H]1[C@H](O)[C@@H](C)/C=C/C=C/C=C/C=C/C=C/C=C/C=C/[C@H](O[C@@H]2O[C@H](C)[C@@H](O)[C@H](N)[C@@H]2O)C[C@@H]2O[C@](O)(C[C@@H](O)C[C@@H](O)CC[C@H](O)[C@@H](O)C[C@@H](O)CC(=O)O[C@H]1C)C[C@H](O)[C@H]2C(=O)O	2381E	0.06 µg/mL
Cc1ccc(C)n1-n1c(-c2ccccc2)n[nH]c1=O	ATCC16231	>250 µg/mL
Cn1nc(C(=O)O)c(/C(=N/Nc2ccccn2)c2ccccc2)c1-c1ccccc1	ATCC 27541	0.62 µg/mL
CN(C)c1ccc(CN2CCN(Cc3ccc(N(C)C)cc3)[C]2=[Ru]([Cl])[Cl])cc1.Cc1ccc(C(C)C)cc1		100 µg/mL
O=C1C(Sc2cccc(Cl)c2)=C(Sc2cccc(Cl)c2)C(=O)c2ncccc21	ATCC 10231	6.3 µg/mL
Cc1c(C)c(C)c(C)c(C)c1C.Cc1ccc(N2C=NCCC2)cc1.[Cl][Ru][Cl]		400 µg/mL
COc1ccc2nc(C(C)C)c(=O)[nH]c2c1		>200 µM
O=c1cc(-c2ccc(C3=NCCN3)cc2)oc2ccc(C3=NCCN3)cc12	ATCC 10231	>50 µg/mL
NNC(=S)Nn1c(-c2ccccc2)nc2ccccc2c1=O	ATCC 753	100 µg/mL
Cn1cccc1-c1n[nH]c(=O)n1CCCCCCn1c(-c2cccn2C)n[nH]c1=O		7.5 µg/mL
O=C1C(Cl)=C(NCl)C(=O)c2ccccc21		50 µg/mL
N=C(N)c1ccc2nc(-c3ccc(-c4cc(=O)c5ccccc5o4)cc3)[nH]c2c1	ATCC 10231	25 µg/mL
O=C1C(Cl)=C(Nc2ccc(O)cc2)C(=O)c2ccccc21		50 µg/mL
CC(=C/C=C/C(=O)O)/C=C/C=C(\C)C(O)C(C)C(=O)O[C@H]1C[C@H](C)C=C2C=C[C@@]3(C)O[C@@H](O)CC(=O)[C@]3(C)[C@H]21	ATCC 62376	3.12 µg/mL
CC(C)c1nc2cc(Cl)ccc2[nH]c1=O		>200 µM
CC(n1ncn(-c2ccc(Cn3nccn3)cc2)c1=O)C(O)(Cn1cncn1)c1ccc(F)cc1F	TA	0.03 µg/mL
CNC(=S)Nn1c(-c2ccccc2)nc2ccccc2c1=O	ATCC 753	50 µg/mL
CS(=O)c1nnc(-c2cc([N+](=O)[O-])ccc2-c2ccco2)s1	ATCC 10231	12.5 µg/mL
CN1CCN(c2nc(Nc3ccc(C#N)c(C(F)(F)F)c3)nc(Oc3ncnc4ccccc34)n2)CC1	MTCC 183	>100 µg/mL
CC(n1ncn(-c2ccc(-n3nccn3)cc2)c1=O)C(O)(Cn1cncn1)c1ccc(F)cc1F	TA	<0.016 µg/mL
O=C(NCCCCCCNC(=O)NNC(=O)c1ccccc1)NNC(=O)c1ccccc1	ATCC 90028	7.5 µg/mL
O=C1C(Sc2ccc(Cl)c(Cl)c2)=C(Sc2ccc(Cl)c(Cl)c2)C(=O)c2ncccc21	ATCC 10231	6.3 µg/mL
O=C1C(Br)=C(Nc2cccc([N+](=O)[O-])c2)C(=O)c2ccccc21		25 µg/mL
CC1CCCC[C@H]2C(=O)C=C[C@H]3OC(/C=C/C=C/C=C/C(=O)O)=C(C(=O)O1)[C@@H]32		>32 µg/mL
CCS(=O)(=O)c1nnc(-c2cccc([N+](=O)[O-])c2)s1	ATCC 10231	6.25 µg/mL
O=C(N[C@H](Cc1cn(Cc2ccc([N+](=O)[O-])cc2)nn1)C(=O)OCc1cn(Cc2ccc([N+](=O)[O-])cc2)nn1)OCc1ccccc1	MTCC 183	8.9 µM
O=C1C(=O)c2ccccc2C(O)=C1Nc1cccc(C(=O)O)c1		100 µg/mL
CCC(C)n1ncn(-c2ccc(N3CCN(c4ccc(OC[C@H]5CO[C@](Cn6cncn6)(c6ccc(Cl)cc6Cl)O5)cc4)CC3)cc2)c1=O	TIMM1756	0.03 µg/mL
O=c1cnc2ccc(Cl)c(Cl)c2[nH]1		>200 µM
CC[C@H](C)n1ncn(-c2ccc(N3CCN(c4ccc(OC[C@@H]5CO[C@@](Cn6cncn6)(c6ccccn6)O5)cc4)CC3)cc2)c1=O	GEN-45	≤0.03 µg/mL
CC(N1CCN(c2ccc(-n3cnnn3)cc2)C1=O)C(O)(Cn1cncn1)c1ccc(F)cc1F	TA	0.002 µg/mL
CN[C@@H]1[C@H](O[C@@H]2O[C@H](CO)[C@@H](O)[C@H](S(=O)(=O)O)[C@H]2O)[C@@H](O)[C@H](O[C@H]2c3cc(C)c(C(=O)N[C@H](CO)C(=O)O)c(O)c3-c3c(cc4c(c3O)C(=O)c3cc(OC)cc(O)c3C4=O)[C@@H]2O)O[C@@H]1C	8302-14	12.5 µg/mL
Cc1cc(NC2=C(Cl)C(=O)c3ccccc3C2=O)no1		50 µg/mL
CO/C=C1\[C@@H](Cn2cncn2)[C@H](COc2ccc(OC(F)(F)F)cc2)CC[C@@]1(C)CCOC	CY3003	0.05 µg/mL
CC(C)c1nc2cc(C(F)(F)F)cc(N)c2[nH]c1=O		>200 µM
C[C@H]1[C@H](O)[C@@H](C)/C=C/C=C/C=C/C=C/C=C/C=C/C=C/[C@H](O[C@@H]2O[C@H](C)[C@@H](O)[C@H](N)[C@@H]2O)C[C@@H]2O[C@](O)(C[C@@H](O)C[C@@H](O)CC[C@H](O)[C@@H](O)C[C@@H](O)CC(=O)O[C@H]1C)C[C@H](O)[C@H]2C(=O)O	A28235	0.25 µg/mL
O=C(N[C@H](Cc1cn(Cc2ccccc2)nn1)C(=O)OCc1cn(Cc2ccccc2)nn1)OCc1ccccc1	MTCC 183	10.3 µM
Cc1ccc(NC2=C(Br)C(=O)c3ccccc3C2=O)cc1		25 µg/mL
Cc1ccc(SC2=C(Sc3ccc(C)cc3)C(=O)c3ncccc3C2=O)cc1	ATCC 10231	6.3 µg/mL
Cc1nc(-c2ccc(-n3cnn(C(C)C(O)(Cn4cncn4)c4ccc(F)cc4F)c3=O)cc2)cs1	TA	0.002 µg/mL
O=C1C(Sc2ccccc2F)=C(Sc2ccccc2F)C(=O)c2ncccc21	ATCC 10231	12.5 µg/mL
Cc1cc(COc2ccc(Oc3ccc(Cl)cc3)cc2)n(O)c(=O)c1	TIMM2640	4 µg/mL
O=C(O)c1ccc(NC2=C(Cl)C(=O)c3ccccc3C2=O)cc1		25 µg/mL
Cc1cc(Cl)nc2c1C(=O)C(Sc1ccc(Cl)cc1)=C(Sc1ccc(Cl)cc1)C2=O	ATCC 10231	3.2 µg/mL
Cc1ccc(Cn2cc(COC(=O)[C@@H](Cc3cn(Cc4ccc(C)cc4)nn3)NC(=O)OCc3ccccc3)nn2)cc1	MTCC 183	19.6 µM
O=C1C(Sc2ccc(F)cc2F)=C(Sc2ccc(F)cc2F)C(=O)c2ncccc21	ATCC 10231	6.3 µg/mL
Cc1ccc(NC2=C(Cl)C(=O)c3ccccc3C2=O)cc1		100 µg/mL
CCCCCCCCCCCCCCCCCC(=O)NC1CC(O)C(O)NC(=O)C2C(O)C(C)CN2C(=O)C(C(C)O)NC(=O)C(C(O)C(O)c2ccc(O)cc2)NC(=O)C2CC(O)CN2C(=O)C(C(C)O)NC1=O	MY1750	0.5 µg/mL
Cc1c(O)cccc1C(=O)N[C@@H](CSc1ccccc1)[C@H](O)CN1C[C@H]2CCCC[C@H]2C[C@H]1C(=O)NC(C)(C)C	I3	>64 µg/mL
COc1ccc2ncc(=O)[nH]c2c1		>200 µM
Cc1cccc(Cn2cc(COC(=O)[C@@H](Cc3cn(Cc4cccc(C)c4)nn3)NC(=O)OCc3ccccc3)nn2)c1	MTCC 183	9.8 µM
CC1=CC(=O)C(C(=O)/C=C/c2ccccc2)=C1O	ATCC 90028	50 µg/mL
O=c1[nH]nc(Cc2ccccc2)n1CCCl	ATCC16231	>250 µg/mL
Cc1n[nH]c(=O)n1CCCCCCn1c(C)n[nH]c1=O		7.5 µg/mL
CC(C)N=C(N)c1ccc2nc(-c3ccc4oc(-c5ccccc5)cc(=O)c4c3)[nH]c2c1	ATCC 10231	12.5 µg/mL
CCSc1nnc(-c2ccccc2[N+](=O)[O-])s1	ATCC 10231	>100 µg/mL

Repeating the final 4 entries:

| SMILES | strain | value |
|---|---|---|
| O=c1[nH]nc(Cc2ccccc2)n1CCCl | ATCC16231 | >250 µg/mL |
| Cc1n[nH]c(=O)n1CCCCCCn1c(C)n[nH]c1=O |  | 7.5 µg/mL |
| CC(C)N=C(N)c1ccc2nc(-c3ccc4oc(-c5ccccc5)cc(=O)c4c3)[nH]c2c1 | ATCC 10231 | 12.5 µg/mL |
| CCSc1nnc(-c2ccccc2[N+](=O)[O-])s1 | ATCC 10231 | >100 µg/mL |